Experimental data taken from paper PMC7660905, “Convergent structural features of respiratory syncytial virus neutralizing antibodies and plasticity of the site V epitope on prefusion F” (2020).
pKd: −log10 of the molar value.

Target: RSB1 IgG (human neutralizing monoclonal antibody)
Assay: SPR
Details: read off a plot; for pKd: parent: est. 1.5e-10; for ratio to parent: parent: est. 1.0

Row | Substance | pKd | ratio to parent
1 | DS-Cav1 (stabilized prefusion RSV glycoprotein F) (from UniProt P03420) D200N | 10.14 | 0.5
2 | DS-Cav1 (stabilized prefusion RSV glycoprotein F) (from UniProt P03420) N63A | 9.89 | 0.9
3 | DS-Cav1 (stabilized prefusion RSV glycoprotein F) (from UniProt P03420) N276S | 10.60 | 0.2
4 | DS-Cav1 (stabilized prefusion RSV glycoprotein F) (from UniProt P03420) K65A | 9.24 | 
5 | DS-Cav1 (stabilized prefusion RSV glycoprotein F) (from UniProt P03420) D200N; N276S | 10.14 | 0.5
6 | DS-Cav1 (stabilized prefusion RSV glycoprotein F) (from UniProt P03420) N63A; K65A | 8.62 | 
